Results of unrelated studies side by side (data: NIAID ChemDB).

All rows: tests in culture; agent: Varicella zoster virus; read by: plaque count; read-out: EC50

Lines come from different laboratories, so protocols vary. Blank or dashed fields: not listed here. ECn: concentration that inhibits the pathogen or its effect by n%.

compound | cells | strain | value
CC(=O)OCCOCN1c2nc(Cc3ccccc3)[nH]c2C(N)=NS1(=O)=O | HEL | YS/R (TK-) | >50 µg/mL
CCc1cn([C@@H]2O[C@H](CO)[C@@H](O)[C@@H]2O)c(=S)nc1N | MRC-5 | Kanno-Kohmura (TK-) | >264.9 µM
c1ccc(-c2cc3c4ccccc4ccn3c2)cc1 | MRC-5 | G-31 | >40 µM
O=C(O)CP(=O)(O)O |  | Kawaguchi acyclovir-resistant mutant A8 | 1.59 µg/mL
O=c1[nH]c(=O)n([C@H]2C[C@H](O)[C@@H](CO)O2)cc1I | HEF | KANNO | 1.1 µg/mL
CC1(C)[C@@H](CCO)C[C@H]1n1cnc2c(N)ncnc21 | HEL | (TK+)/OKA | >20 µg/mL
OC[C@H]1O[C@@H](c2ccc(F)cc2F)C[C@@H]1O | HEL | (TK-)07/1 | >200 µM
Cc1cn([C@H]2C[C@H](O)[C@@H](CO)O2)c(=S)nc1N | MRC-5 | CAQU (TK+) | 27.7 µM
O=c1nc2oc(CCCSc3ccccc3)cc2cn1[C@H]1C[C@H](O)[C@@H](CO)O1 | HEL | (TK+)/OKA | 0.9 µM
CCCc1cn([C@H]2C[C@H](O)[C@@H](CO)O2)c(=S)nc1N | MRC-5 | Kanno-Kohmura (TK-) | >277.4 µM
O=c1[nH]c(=O)n([C@H]2C[C@H](O)[C@@H](CO)O2)cc1/C=C/I | HEF | Batson | 0.0012 µg/mL
O=C(O)/C=C/c1cn([C@@H]2O[C@H](CO)[C@@H](O)[C@@H]2O)c(=S)[nH]c1=O | MRC-5 | Kanno-Kohmura (TK-) | >238.4 µM
C=Cc1cn([C@@H]2O[C@H](CO)[C@@H](O)[C@@H]2O)c(=O)[nH]c1=O |  | Kawaguchi | 0.9155 µg/mL
Cc1cc([C@@H]2C[C@H](O)[C@@H](CO)O2)c(F)cc1F | HEL | TK+/YS | >200 µM
Cn1cc(C(=O)NCc2ccc(Cl)cc2)c(=O)c2cc(CN3CCOCC3)ccc21 | HFF | MA varicella isolate | 0.5 µM
Cc1cc([C@H]2C[C@H](O)[C@@H](CO)O2)c(Cl)cc1F | HEL | TK+/YS | >200 µM
CCc1cn([C@H]2C[C@H](O)[C@@H](CO)O2)c(=S)[nH]c1=O | MRC-5 | CAQU (TK+) | 9.5 µM
CC(=O)c1c(-c2ccc(C#N)cc2)cc2ccccn12 | MRC-5 | G-31 | 5 µM
CCCc1ccc(OCCCc2cc3cn([C@H]4C[C@H](O)[C@@H](CO)O4)c(=O)nc3o2)cc1 | HEL | (TK+)/OKA | 8.4 µM
O=c1[nH]c(=O)n([C@H]2C[C@H](O)[C@@H](CO)O2)cc1/C=C/Br | HEF | Ohtomo | 0.0012 µg/mL
CC1(C)[C@@H](CCO)C[C@H]1n1nnc2c(Cl)nc(N)nc21 | HEL | (TK+)/OKA | >20 µg/mL
O=C(O)c1ccc2cc(-c3ccccc3)cn2c1 | MRC-5 | G-31 | >40 µM
Cc1c(Br)cc(Br)c2ncc(CSCc3ccco3)n12 | HEL | OKA (TK+) | >20 µg/mL
Clc1ccc(-c2cc3ccccn3c2)cc1Cl | MRC-5 | G-31 | >40 µM
NC1=NS(=O)(=O)N(Cc2ccccc2)c2nc(Cc3ccccc3)[nH]c21 | HEL | 07/1 (TK-) | 12 µg/mL
Cc1c(Br)cc(Br)c2ncc(CSCCc3ccccc3)n12 | HEL | OKA (TK+) | 4 µg/mL
Nc1nc(=S)n([C@@H]2O[C@H](CO)[C@@H](O)[C@@H]2O)cc1CO | MRC-5 | HOSEN (TK+) | 133.3 µM
Cc1c(Br)cc(Br)c2ncc(CSCc3ccc(Cl)cc3Cl)n12 | HEL | YS (TK+) | >20 µg/mL
O=C(O)CP(=O)(O)O | HEL | YS-W3 G19 H3 | 3.7 µg/mL
Cc1cn([C@@H]2O[C@H](CO)[C@@H](O)[C@@H]2O)c(=S)nc1N | MRC-5 | Kanno-Kohmura (TK-) | >275.1 µM
Cc1cccn2c(CSCc3ccccc3)cnc12 | HEL | YS (TK+) | 0.3 µg/mL
CC1(C)[C@@H](CCO)C[C@H]1n1nnc2c(N)nc(N)nc21 | HEL | (TK-)/YS/R | >20 µg/mL
CCc1cn([C@H]2C[C@H](O)[C@@H](CO)O2)c(=S)nc1N | MRC-5 | HOSEN (TK+) | >288.6 µM
Cc1cc([C@@H]2C[C@H](O)[C@@H](CO)O2)c(F)cc1Cl | HEL | (TK+)/OKA | >200 µM
Cc1ccccc1CSCc1cnc2c(Br)cc(Br)c(C)n12 | HEL | YS (TK+) | >5 µg/mL
CC(O)c1cn([C@@H]2O[C@H](CO)[C@@H](O)[C@@H]2O)c(=S)nc1N | MRC-5 | HOSEN (TK+) | 168.9 µM
Cc1ccc(OCCCc2cc3cn([C@H]4C[C@H](O)[C@@H](CO)O4)c(=O)nc3o2)cc1 | HEL | (TK+)/OKA | 5 µM
Cc1cccc(CSCc2cnc3c(Br)cc(Br)c(C)n23)c1 | HEL | YS/R (TK-) | 6.2 µg/mL
O=c1[nH]c(=O)n([C@@H]2O[C@H](CO)[C@@H](O)[C@@H]2O)cc1/C=C/Br | HEL | OKA-H12 | 0.0006 µg/mL
Cc1cc([C@H]2C[C@H](O)[C@@H](CO)O2)c(F)cc1Cl | HEL | (TK-)07/1 | >200 µM
O=C(NCc1ccc(Cl)cc1)c1c[nH]c2ccc(CCCO)cc2c1=O |  | DIE | 0.1 µM
CC1(C)[C@@H](CCO)C[C@H]1n1nnc2c(=O)[nH]c(N)nc21 | HEL | (TK+)/OKA | >50 µg/mL

Repeating the final 4 entries:

compound	cells	strain	value
O=c1[nH]c(=O)n([C@@H]2O[C@H](CO)[C@@H](O)[C@@H]2O)cc1/C=C/Br	HEL	OKA-H12	0.0006 µg/mL
Cc1cc([C@H]2C[C@H](O)[C@@H](CO)O2)c(F)cc1Cl	HEL	(TK-)07/1	>200 µM
O=C(NCc1ccc(Cl)cc1)c1c[nH]c2ccc(CCCO)cc2c1=O		DIE	0.1 µM
CC1(C)[C@@H](CCO)C[C@H]1n1nnc2c(=O)[nH]c(N)nc21	HEL	(TK+)/OKA	>50 µg/mL